Fitness effects across NS2B and the NS3 protease domain of Zika virus

From the data files of Ni et al. 2025, doi:10.1038/s41467-025-63602-z.

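Pools of virus carrying all single amino acid changes were selected for growth in Huh-7.5 cells. The effect is the change in frequency of a mutant, normalised to wild type, as a mean of three replicate libraries (two for positions 207-308). The study looked for pockets that tolerate few changes, as a guide for inhibitor design.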

Protein: NS2B and the protease part of NS3 of Zika virus strain MR766. Positions count along the chain below; NS2B spans 2-131 and NS3 starts at 132.
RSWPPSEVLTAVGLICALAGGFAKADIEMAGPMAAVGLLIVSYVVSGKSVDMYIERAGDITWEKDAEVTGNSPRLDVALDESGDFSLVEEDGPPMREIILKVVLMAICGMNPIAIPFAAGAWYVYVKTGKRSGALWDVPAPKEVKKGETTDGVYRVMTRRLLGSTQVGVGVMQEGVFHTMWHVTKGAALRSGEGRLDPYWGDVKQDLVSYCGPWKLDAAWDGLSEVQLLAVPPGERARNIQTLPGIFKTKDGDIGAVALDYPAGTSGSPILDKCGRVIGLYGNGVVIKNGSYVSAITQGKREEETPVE

Values are log2 effects on growth: 0 is wild type, lower means poorer growth.
Rows are sites, columns the new residue; wt marks the wild-type residue.
Positions 1-103, 104-206 and 207-308 were made and measured as separate libraries.
An asterisk is a stop codon; stop codons read about -7, near the floor of the assay.
Position 1 still belongs to NS2A. In the paper, -1 or higher counts as tolerated.
Six mutants with high scores were retested singly and none clearly outgrew wild type, so positive values are not proof of better growth.

site | A | C | D | E | F | G | H | I | K | L | M | N | P | Q | R | S | T | V | W | Y | *
Y281 | -5.98 | -5.59 | -5.29 | -5.06 | -5.49 | -5.61 | -5.14 | -5.18 | -5.32 | -6.51 | -5.15 | -5.73 | -5.86 | -5.36 | -6.36 | -6.86 | -5.67 | -6.36 | -4.51 | wt | -7.64
G282 | -5.42 | -4.31 | -2.75 | -3.79 | -4.11 | wt | -3.86 | -4.51 | -4.38 | -5.77 | -3.61 | -4.65 | -5.22 | -3.39 | -5.40 | -5.93 | -5.43 | -5.94 | -4.12 | -4.18 | -5.96
N283 | -5.67 | -5.27 | -5.15 | -4.67 | -5.56 | -5.27 | -5.55 | -6.02 | -5.91 | -6.46 | -5.43 | wt | -5.90 | -4.77 | -6.25 | -6.76 | -6.50 | -5.98 | -4.82 | -5.97 | -7.18
G284 | -6.01 | -4.82 | -4.35 | -5.31 | -4.74 | wt | -4.23 | -4.05 | -5.07 | -6.29 | -5.05 | -4.39 | -5.24 | -5.28 | -5.15 | -6.27 | -5.75 | -6.62 | -6.12 | -4.82 | -6.76
V285 | -6.04 | -5.20 | -4.56 | -4.04 | -5.64 | -5.98 | -4.66 | -5.23 | -4.30 | -6.43 | -4.33 | -4.27 | -5.09 | -4.81 | -6.11 | -5.93 | -5.38 | wt | -4.76 | -4.62 | -6.31
V286 | -4.27 | -5.11 | -4.94 | -5.59 | -5.44 | -6.48 | -4.82 | -1.52 | -5.31 | -7.30 | -4.50 | -5.12 | -5.85 | -5.20 | -6.40 | -6.41 | -6.24 | wt | -5.08 | -4.59 | -6.97
I287 | -0.16 | 1.07 | -5.13 | -3.03 | -3.55 | 0.08 | -0.93 | wt | -2.67 | -0.38 | 0.38 | 0.56 | -1.02 | 1.42 | 0.85 | -0.07 | 0.89 | -0.20 | -0.55 | 0.24 | -7.00
K288 | -0.24 | -4.98 | -4.87 | -5.15 | -5.46 | -0.35 | -1.59 | -5.43 | wt | -6.44 | -5.26 | -5.88 | 0.08 | -1.75 | -0.40 | 0.02 | -3.31 | -6.04 | -4.62 | -4.86 | -6.14

7 of these entries, quoted again:

| substitution | effect (log2) |
|---|---|
| K288V | -6.04 |
| N283P | -5.90 |
| G282T | -5.43 |
| G284V | -6.62 |
| K288* | -6.14 |
| Y281F | -5.49 |
| I287K | -2.67 |